Pooled drug test results. Numbers come from NIAID ChemDB, via PubChem.

All rows: target-level tests; species: HIV-1; target: gp120; measure: IC50

Neighbouring rows are from separate reports. An empty or dashed field is not shown. a–b is a range or a potency band. ICn is the concentration giving n% inhibition.

{"compound": "COc1ccnc2[nH]cc(C(=O)C(=O)N3CCN(C(=O)c4ccccc4)C[C@H]3C)c12", "result": "~0.1 µM"}
{"compound": "O=C(O[C@@H]1[C@H](O)C[C@@](OC(=O)c2cc(O)c(O)c(O)c2)(C(=O)O)C[C@H]1OC(=O)c1cc(O)c(O)c(O)c1)c1cc(O)c(O)c(O)c1", "read by": "fluorescence", "result": "0.7 µM"}
{"compound": "O=S(=O)(O)c1cc(N=C=S)ccc1/C=C/c1ccc(N=C=S)cc1S(=O)(=O)O", "read by": "binding", "result": ">10 µM"}
{"compound": "O=C(O)[C@H](Cc1ccccc1)NS(=O)(=O)c1cnc(N2CCC(CCCCCCCC3CCN(S(=O)(=O)c4cc(Br)c(Cl)s4)CC3)CC2)c(Br)c1", "read by": "fluorescence", "result": "<1 µM"}
{"compound": "Cc1cn([C@H]2C[C@H](N=[N+]=[N-])[C@@H](CO)O2)c(=O)[nH]c1=O", "read by": "ELISA", "result": ">100 µg/mL"}
{"compound": "NC(=O)[C@H](CCCN=C(N)N)NC(=O)[C@H](CO)NC(=O)[C@H](Cc1ccccc1)NC(=O)[C@@H](N)Cc1ccccc1", "read by": "ELISA", "result": "2750 µM"}
{"compound": "COc1ccnc2[nH]cc(C(=O)C(=O)N3CCN(C(=O)c4ccccc4)C[C@H]3C)c12", "result": "0.1 µM"}
{"compound": "NCCCC[C@H](NC(=O)[C@@H](N)Cc1ccccc1)C(=O)N[C@@H](Cc1ccccc1)C(=O)N[C@@H](CCCN=C(N)N)C(N)=O", "read by": "ELISA", "result": "1780 µM"}
{"compound": "Cc1ccc(C(=O)Nc2ccc(S(=O)(=O)O)c3cc(S(=O)(=O)O)cc(S(=O)(=O)O)c23)cc1NC(=O)c1cccc(NC(=O)Nc2cccc(C(=O)Nc3cc(C(=O)Nc4ccc(S(=O)(=O)O)c5cc(S(=O)(=O)O)cc(S(=O)(=O)O)c45)ccc3C)c2)c1", "read by": "ELISA", "result": ">500 µg/mL"}
{"compound": "NC(=O)c1ccc(C(NC(=O)c2ccc(C(NC(=O)c3ccc(C(=O)C(=O)O)cc3)(NC(=O)c3ccc(C(=O)C(=O)O)cc3)C(=O)O)cc2)(NC(=O)c2ccc(C(NC(=O)c3ccc(C(=O)C(=O)O)cc3)(NC(=O)c3ccc(C(=O)C(=O)O)cc3)C(=O)O)cc2)C(=O)O)cc1", "read by": "ELISA", "result": "8 µg/mL"}
{"compound": "O=C(O[C@@H]1Cc2c(O)cc(O)cc2O[C@@H]1c1cc(O)c(O)c(O)c1-c1c([C@H]2Oc3cc(O)cc(O)c3C[C@H]2OC(=O)c2cc(O)c(O)c(O)c2)cc(O)c(O)c1O)c1cc(O)c(O)c(O)c1", "read by": "ELISA", "result": ">20 µM"}
{"compound": "CCCCCCC[C@H]1CC2CCC3C(C(=O)OCCCCCCCCCC4N=C(N)N5CCCC5=C4C(=O)OCCCCN=C(N)N)=C(C)NC(=N1)N23", "result": "25 µM"}
{"compound": "CN1C(=O)C(c2cc(Cl)c(O)c(Cl)c2)NC(=O)[C@@H]2NC(=O)C(c3cc(Cl)c(O)c(Cl)c3)NC(=O)[C@H](NC(=O)C(=O)c3cc(Cl)c(O)c(Cl)c3)Cc3c[nH]c4c(cccc34)-c3cc2cc(c3O)Oc2ccc(cc2)CC1C(=O)NC(C(=O)O)c1ccc(O)cc1", "result": "2 µM"}
{"compound": "CCC1=C(C)/C(=C/c2[nH]c(Cc3[nH]c(/C=C4\\NC(=O)C(C)=C4CC)c(C)c3CCC(=O)O)c(CCC(=O)O)c2C)NC1=O", "result": ">60 µg/mL"}
{"compound": "O=C(NCCCCC(NS(=O)(=O)c1cnc(N2CCC(CCCC3CCN(S(=O)(=O)c4cc(Br)c(Cl)s4)CC3)CC2)c(Br)c1)C(=O)O)OCc1ccccc1Cl", "read by": "fluorescence", "result": "<1 µM"}
{"compound": "O=S(=O)(O)c1c2ccccc2c(-c2c3nc(c(-c4c5ccccc5c(S(=O)(=O)O)c5ccccc45)c4ccc([nH]4)c(-c4c5ccccc5c(S(=O)(=O)O)c5ccccc45)c4nc(c(-c5c6ccccc6c(S(=O)(=O)O)c6ccccc56)c5ccc2[nH]5)C=C4)C=C3)c2ccccc12", "strain or isolate": "IIIB", "read by": "ELISA", "result": "<50 µg/mL"}
{"compound": "CSCC[C@H](NC(=O)[C@H](CCSC)NC(=O)[C@H](C)NC(=O)[C@H](CCC(=O)O)NC(=O)[C@H](CO)NC(=O)[C@H](Cc1c[nH]c2ccccc12)NC(=O)[C@@H]1CCCN1)C(=O)O", "strain or isolate": "SF2", "read by": "ELISA", "result": ">500 µM"}
{"compound": "O=S(=O)(O)c1c2ccccc2c(-c2c3nc(c(-c4c5ccccc5c(S(=O)(=O)O)c5ccccc45)c4ccc([nH]4)c(-c4c5ccccc5c(S(=O)(=O)O)c5ccccc45)c4nc(c(-c5c6ccccc6c(S(=O)(=O)O)c6ccccc56)c5ccc2[nH]5)C=C4)C=C3)c2ccccc12", "strain or isolate": "IIIB", "read by": "ELISA", "result": "<50 µg/mL"}
{"compound": "C1=Cc2nc1c(-c1ccncc1)c1ccc([nH]1)c(-c1ccncc1)c1nc(c(-c3ccncc3)c3ccc([nH]3)c2-c2ccncc2)C=C1", "result": "<60 µg/mL"}
{"compound": "COc1ccc(OC)c2c(C(=O)C(=O)N3CCN(C(=O)c4ccccc4)CC3)c[nH]c12", "strain or isolate": "JR-FL", "read by": "ELISA", "result": "0.024 µM"}
{"compound": "NC(=O)[C@H](CCCN=C(N)N)NC(=O)CNC(=O)[C@@H](N)Cc1ccccc1", "read by": "ELISA", "result": "280 µM"}
{"compound": "O=C(O[C@@H]1Cc2c(O)cc(O)cc2O[C@@H]1c1cc(O)c(O)c(O)c1)c1cc(O)c(O)c(O)c1", "read by": "ELISA", "result": ">20 µM"}
{"compound": "C=Cc1c(C)c2cc3[nH]c(cc4nc(cc5nc(cc1[nH]2)C(C)=C5CCC(=O)O)C(CCC(=O)O)=C4C)c(C)c3C=C", "strain or isolate": "MN", "read by": "ELISA / binding", "result": "~6.25 µM"}
{"compound": "Clc1ccc(CNc2ccccc2Cn2ccnc2)cc1", "strain or isolate": "IIIB", "read by": "fluorescence", "result": "<10 µg/mL"}
{"compound": "NC(=O)[C@H](CCCN=C(N)N)NC(=O)[C@@H](N)Cc1ccccc1", "read by": "ELISA", "result": "240 µM"}
{"compound": "O=C(O)C1(NS(=O)(=O)c2cnc(N3CCC(CCCC4CCN(S(=O)(=O)c5cc(Br)c(Cl)s5)CC4)CC3)c(Br)c2)CCCCC1", "read by": "fluorescence", "result": "1 µM"}
{"compound": "COC(=O)C(=O)N1CCC[C@@H]1C(=O)N[C@H](Cc1ccccc1)C(=O)OCc1ccccc1", "read by": "ELISA", "result": ">400 µg/mL"}
{"compound": "NC(=O)CC[C@H](NC(=O)[C@@H](N)Cc1ccccc1)C(=O)N[C@@H](CCCN=C(N)N)C(N)=O", "read by": "ELISA", "result": "610 µM"}
{"compound": "COc1ccnc2[nH]cc(C(=O)C(=O)N3CCN(C(=O)c4ccccc4)C[C@H]3C)c12", "strain or isolate": "ADA", "read by": "radiometric", "result": ">50 µM"}
{"compound": "O=C(O)CCC1=C(CC(=O)O)c2cc3nc(cc4[nH]c(cc5[nH]c(cc1n2)c(CC(=O)O)c5CCC(=O)O)c(CCC(=O)O)c4CC(=O)O)C(CC(=O)O)=C3CCC(=O)O", "result": ">60 µg/mL"}
{"compound": "O=C(O)C[C@@H]1C(=O)O[C@H]2[C@@H]3OC(=O)c4cc(O)c(O)c(O)c4-c4c(cc(O)c(O)c4O)C(=O)OC[C@H]2O[C@@H](OC(=O)c2cc(O)c(O)c(O)c2)[C@@H]3OC(=O)c2cc(O)c(O)c3c2[C@H]1[C@H](O)C(=O)O3", "read by": "fluorescence", "result": "0.2 µM"}
{"compound": "COC(=O)C(=O)N1CCC[C@@H]1C(=O)N[C@H](Cc1ccccc1)C(=O)OCc1ccccc1", "read by": "ELISA", "setting": "1% FBS", "result": ">500 µM"}
{"compound": "C=CC1=C(C)C2=NC1=CC1=NC(=C(CC)/C1=C\\[O-])C=c1[n-]c3c(c1C)C(=O)[C@H](C(=O)OC)C=3C1=NC(=C2)[C@@H](C)[C@@H]1CCC(=O)OC/C=C(\\C)CCCC(C)CCCC(C)CCCC(C)C.[Mg+2]", "result": "<60 µg/mL"}
{"compound": "O=C(Oc1cc(O)cc2c1C[C@@H](OC(=O)c1cc(O)c(O)c(O)c1)[C@@H](c1cc(O)c(O)c(O)c1)O2)c1cc(O)c(O)c(O)c1", "read by": "ELISA", "result": ">20 µM"}
{"compound": "CC1=C(CCC(=O)O)c2cc3[nH]c(cc4[nH]c(cc5nc(cc1n2)C(CCC(=O)O)=C5CC(=O)O)c(CCC(=O)O)c4CC(=O)O)c(CCC(=O)O)c3CC(=O)O", "result": ">60 µg/mL"}
{"compound": "O=C(O)[C@H](Cc1ccc(Cl)cc1)NS(=O)(=O)c1cnc(N2CCC(CCCCCC3CCN(S(=O)(=O)c4cc(Br)c(Cl)s4)CC3)CC2)c(Br)c1", "read by": "fluorescence", "result": "1–10 µM"}
{"compound": "CC1=C(CCC(=O)O)c2cc3nc(cc4[nH]c(cc5[nH]c(cc1n2)c(C)c5CCC(=O)O)c(CCC(=O)O)c4C)C(CCC(=O)O)=C3C", "result": ">60 µg/mL"}
{"compound": "NC(=O)[C@H](CCCN=C(N)N)NC(=O)[C@H](Cc1ccccc1)NC(=O)[C@H](Cc1ccccc1)NC(=O)[C@@H](N)Cc1ccccc1", "read by": "ELISA", "result": "720 µM"}
{"compound": "CC1=C(CCC(=O)O)c2cc3nc(cc4[nH]c(cc5[nH]c(cc1n2)c(CCC(=O)O)c5C)c(CCC(=O)O)c4C)C(CCC(=O)O)=C3C", "result": ">60 µg/mL"}
{"compound": "CSCC[C@H](NS(=O)(=O)c1ccc(N2CCC(CCCC3CCN(S(=O)(=O)c4ccc(C(C)(C)C)cc4)CC3)CC2)c(Cl)c1)C(=O)O", "read by": "fluorescence", "result": "1–10 µM"}
{"compound": "CN1C(=O)C(c2cc(Cl)c(O)c(Cl)c2)NC(=O)[C@@H]2NC(=O)C(c3cc(Cl)c(O)c(Cl)c3)NC(=O)[C@H](NC(=O)C(=O)c3cc(Cl)c(O)c(Cl)c3)Cc3c[nH]c4c(cccc34)-c3cc2cc(c3O)Oc2ccc(cc2)CC1C(=O)NC(C(=O)O)c1ccc(O)cc1", "strain or isolate": "MN", "read by": "ELISA", "result": "0.31 µM"}
{"compound": "NS(=O)(=O)c1ccc(NC(=O)c2ccc(SSc3ccc(C(=O)Nc4ccc(S(N)(=O)=O)cc4)cc3)cc2)cc1", "result": ">100 µM"}
{"compound": "CC1=C(CCC(=O)O)c2cc3[nH]c(cc4nc(cc5[nH]c(cc1n2)c(CCC(=O)O)c5CC(=O)O)C(CCC(=O)O)=C4C)c(CCC(=O)O)c3CC(=O)O", "result": ">60 µg/mL"}

Repeating the final 6 entries:

compound,strain or isolate,read by,setting,result
NC(=O)[C@H](CCCN=C(N)N)NC(=O)[C@H](Cc1ccccc1)NC(=O)[C@H](Cc1ccccc1)NC(=O)[C@@H](N)Cc1ccccc1,,ELISA,,720 µM
CC1=C(CCC(=O)O)c2cc3nc(cc4[nH]c(cc5[nH]c(cc1n2)c(CCC(=O)O)c5C)c(CCC(=O)O)c4C)C(CCC(=O)O)=C3C,,,,>60 µg/mL
CSCC[C@H](NS(=O)(=O)c1ccc(N2CCC(CCCC3CCN(S(=O)(=O)c4ccc(C(C)(C)C)cc4)CC3)CC2)c(Cl)c1)C(=O)O,,fluorescence,,1–10 µM
CN1C(=O)C(c2cc(Cl)c(O)c(Cl)c2)NC(=O)[C@@H]2NC(=O)C(c3cc(Cl)c(O)c(Cl)c3)NC(=O)[C@H](NC(=O)C(=O)c3cc(Cl)c(O)c(Cl)c3)Cc3c[nH]c4c(cccc34)-c3cc2cc(c3O)Oc2ccc(cc2)CC1C(=O)NC(C(=O)O)c1ccc(O)cc1,MN,ELISA,,0.31 µM
NS(=O)(=O)c1ccc(NC(=O)c2ccc(SSc3ccc(C(=O)Nc4ccc(S(N)(=O)=O)cc4)cc3)cc2)cc1,,,,>100 µM
CC1=C(CCC(=O)O)c2cc3[nH]c(cc4nc(cc5[nH]c(cc1n2)c(CCC(=O)O)c5CC(=O)O)C(CCC(=O)O)=C4C)c(CCC(=O)O)c3CC(=O)O,,,,>60 µg/mL